We go through eleven compounds from PMC10012260 (ACS Infectious Diseases, 2023).

Chains of the proteins cited; added tags and fusions are not shown. Lines headed by an entry give the natural chain unless they say otherwise; changes in a name come on top.
UniProt P35743: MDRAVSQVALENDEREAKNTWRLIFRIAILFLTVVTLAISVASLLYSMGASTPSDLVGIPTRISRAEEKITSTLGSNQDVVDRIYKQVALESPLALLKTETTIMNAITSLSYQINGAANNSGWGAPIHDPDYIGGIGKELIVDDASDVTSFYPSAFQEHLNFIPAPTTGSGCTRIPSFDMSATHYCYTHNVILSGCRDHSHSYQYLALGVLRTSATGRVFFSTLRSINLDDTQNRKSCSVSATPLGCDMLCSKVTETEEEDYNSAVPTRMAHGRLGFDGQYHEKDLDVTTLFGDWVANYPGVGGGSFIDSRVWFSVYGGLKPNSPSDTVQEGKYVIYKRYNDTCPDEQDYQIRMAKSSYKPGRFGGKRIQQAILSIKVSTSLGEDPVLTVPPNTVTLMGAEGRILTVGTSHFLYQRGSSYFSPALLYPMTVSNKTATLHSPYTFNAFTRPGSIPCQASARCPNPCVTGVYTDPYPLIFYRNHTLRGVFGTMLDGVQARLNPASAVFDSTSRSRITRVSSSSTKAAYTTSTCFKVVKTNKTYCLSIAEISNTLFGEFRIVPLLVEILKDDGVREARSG

The structures appear in SMILES notation. pIC50: −log10 of the molar value.

As usually defined, the pIC50 is the negative decadic logarithm of the IC50, by convention in mol/L.

The subject of one assay is NDV La Sota. Nature of the assay: Plaque reduction assay (PRA) in Vero cells. Conditions: ratio between CC50 and IC50 observed in PRA. Format: cell-based, Newcastle disease virus. In general terms: Plaques are areas of infected cells; plaque reduction assays count them against a control.
On to `Cc1ccc(C(=O)N[C@H]2C=C(C(=O)O)O[C@@H]([C@H](O)[C@H](O)CO)[C@@H]2NC(=O)C(F)(F)F)cc1` [Compound 23, 2,6-Anhydro-4-(4-methylbenzamido)-3,4,5-trideoxy-5-(2,2,2-trifluoroacetamido)-D-glycero-D-galacto-non-2-enoic Acid], for which the selectivity index (CC50/IC50) is more than 3160.
Turning to `[N-]=[N+]=N[C@H]1C=C(C(=O)O)O[C@@H]([C@H](O)[C@H](O)CO)[C@@H]1NC(=O)C(F)(F)F` [Compound 9], the selectivity index (CC50/IC50) is more than 14700.

Another assay addresses T1, La Sota Clone 30 NDV-HN (Newcastle disease virus, UniProt P35743).
Assay: not given
Conditions: not given
For `CS(=O)(=O)N[C@H]1C=C(C(=O)O)O[C@@H]([C@H](O)[C@H](O)CO)[C@@H]1NC(=O)C(F)(F)F`, the negative logarithm of the IC50 (pIC50) is 5.20.
`CC(=O)N[C@H]1C=C(C(=O)O)O[C@@H]([C@H](O)[C@H](O)CO)[C@@H]1NC(=O)C(F)(F)F` showed a pIC50 of 5.92.
Still for that read-out and setting: with `CC(=O)N[C@H]1[C@H]([C@H](O)[C@H](O)CO)OC(C(=O)O)=C[C@@H]1NC(=O)c1ccc(C)cc1` the figure was 5.96; with `Cc1ccc(C(=O)N[C@H]2C=C(C(=O)O)O[C@@H]([C@H](O)[C@H](O)CO)[C@@H]2NC(=O)C(F)(F)F)cc1` [Compound 23, 2,6-Anhydro-4-(4-methylbenzamido)-3,4,5-trideoxy-5-(2,2,2-trifluoroacetamido)-D-glycero-D-galacto-non-2-enoic Acid], 7.22; with `CC(=O)N[C@H]1[C@H]([C@H](O)[C@H](O)CO)OC(C(=O)O)=C[C@@H]1NS(C)(=O)=O`, 4.89.
Same read-out and setting: the same measure for `O=C(O)C1=C[C@H](NC(=O)C(F)(F)F)[C@@H](NC(=O)C(F)(F)F)[C@H]([C@H](O)[C@H](O)CO)O1` [Compound 24, 2,6-Anhydro-3,4,5-trideoxy-4,5-di-(2,2,2-trifluoroacetamido)-D-glycero-D-galacto-non-2-enoic Acid]: 6.70; for `O=C(O)C1=C[C@H](NS(=O)(=O)c2ccccc2)[C@@H](NC(=O)C(F)(F)F)[C@H]([C@H](O)[C@H](O)CO)O1` [Compound 19, 2,6-Anhydro-4-(phenylsulfonamido)-3,4,5-trideoxy-5-(2,2,2-trifluoroacetamido)-D-glycero-D-galacto-non-2-enoic Acid]: 6.22; for `O=C(O)C1=C[C@H](NS(=O)(=O)C(F)(F)F)[C@@H](NC(=O)C(F)(F)F)[C@H]([C@H](O)[C@H](O)CO)O1`: 4.96.
The compound `O=C(O)C1=C[C@H](NC(=O)c2ccccc2)[C@@H](NC(=O)C(F)(F)F)[C@H]([C@H](O)[C@H](O)CO)O1` showed a pIC50 of 6.07.

Another assay deals with T1, La Sota Clone 30 NDV-HN.
Assay: not given
The following applies: cited from earlier work.
Take `CC(=O)N[C@H]1[C@H]([C@H](O)[C@H](O)CO)OC(C(=O)O)=C[C@@H]1NS(=O)(=O)c1ccc(C)cc1`: the pIC50 is 6.74.
